Anti-infective test results gathered from many reports (values: NIAID ChemDB through PubChem).

All rows: tests on isolated targets; organism: HIV-2; target: Reverse transcriptase; endpoint: IC50

Blank or dashed fields: not listed here. ICn: concentration for n% inhibition. Conditions beyond the fields shown may differ between rows.

structure	read by	mutations	strain or isolate	result
O=S1(c2ccccc2)=NC(=S)Nc2ccccc21	nucleotide incorporation			>300 µM
Nc1nc2c(ncn2[C@H]2CC[C@@H](COP(=O)(O)OP(=O)(O)OP(=O)(O)O)O2)c(=O)[nH]1	nucleotide incorporation			0.055 µg/mL
CC(C)=CCN1C(C)C(=O)Nc2ccc(Cl)cc2S1(=O)=O	RT activity			>30 µM
Cc1c(Sc2ccccc2)n(COCCO)c(=O)[nH]c1=O	nucleotide incorporation			>1200 µM
COC(=O)/C=C/C1=C(N)C2(OS1(=O)=O)[C@@H](CO[Si](C)(C)C(C)(C)C)O[C@@H](n1cc(C)c(=O)[nH]c1=O)[C@@H]2O[Si](C)(C)C(C)(C)C	nucleotide incorporation			>500 µM
COc1ccc(OC)c2c(=O)c(O)c[nH]c12	radiometric			4.03 µM
CC(C)=CCN1C(=O)c2cccn2-c2ccc(Cl)cc2S1(=O)=O	RT activity			>30 µM
Cc1cn([C@@H]2O[C@H](CO[Si](C)(C)C(C)(C)C)[C@@]3(OS(=O)(=O)C(/C=C/CO)=C3N)[C@H]2O[Si](C)(C)C(C)(C)C)c(=O)[nH]c1=O	nucleotide incorporation			>500 µM
CCOCn1c(Cc2ccccc2)c(C(C)C)c(=O)[nH]c1=O	nucleotide incorporation	RT-S102L	EHO	>1656 µM
CCN1c2cc(C)c(C)cc2N(C)S(=O)(=O)c2cccnc21				>350 µM
COC(=O)C(Cc1ccccc1)NC(=O)[C@@H](NC(=O)[C@@H](C[C@H](O)[C@H](CC1CCCCC1)NC(=O)[C@@H](NC(=O)[C@H](Cc1ccccc1)CS(=O)(=O)C(C)(C)C)C(C)C)C(C)C)C(C)C	nucleotide incorporation	RT-E219D	EHO	>1553 µM
C[C@H]1[C@H](O)c2c(c3c(c4c(-c5ccccc5)cc(=O)oc24)OC(C)(C)C=C3)O[C@@H]1C	scintillation proximity / radiometric	RT-Y181C		0.16 µM
CC(=O)c1ccc(C)cc1NC(C(N)=O)c1c(Cl)cccc1Cl	nucleotide incorporation	RT-S102L E219D	EHO	>1425 µM
Cc1cc(C)cc([C@]23SCCN2C(=O)c2ccccc23)c1	ELISA			>200 µM

The first 2 rows once more:

structure	read by	mutations	strain or isolate	result
O=S1(c2ccccc2)=NC(=S)Nc2ccccc21	nucleotide incorporation			>300 µM
Nc1nc2c(ncn2[C@H]2CC[C@@H](COP(=O)(O)OP(=O)(O)OP(=O)(O)O)O2)c(=O)[nH]1	nucleotide incorporation			0.055 µg/mL